Percent effect of library compounds

Data taken from ChEMBL document CHEMBL3988442, “University of Dundee, Small-Polar-MMV Screening Library” (2021).

Values are the deposited “Percent Effect”, in %.
The record does not define 0% and 100%; most values in the screen are far below 50% and negative numbers occur (in some assays of this library far below -100).
This is part of a subset picked to be rich in strong results.
Two or more numbers in one place are separate tests of the same structure; such repeats can differ widely.

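Growth of Mycobacterium tuberculosis over 3 days (7H9 medium with glucose and tyloxapol); the read-out is not stated. Compounds at 50 µM. Direction is inferred from retests: higher values go with more growth inhibition. Of about 69,000 compounds tested this way, about 760 (1.1%) reached 50% or more in at least one test.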

compound | effect
Cn1nnc(NCc2ccc(-c3ccc(Cl)cc3)o2)n1 | 53.11 & 35.24
CCc1nc(N)nc(NCCC(=O)N2CCCC2)c1C | -4.188 & -26.96
Cc1c(C(=O)NCC2CCN(C)C2)n(C)c2c(C)cccc12 (stereo not shown) | -13.47
CC(C)CCNc1nnc(C(C)C)s1 | 9.35
Cc1nc(CN(C)C2CCCN(c3cccnn3)C2)no1 (stereo not shown) | -28.27
CC(O)(CNc1ccc(Cl)c(C#N)n1)c1ccsc1 (stereo not shown) | 8.846
Nc1nnc(Cn2nnc(-c3ccccc3F)n2)s1 | -3.638
Cc1cnc(NC(=O)c2csc(NC3CCCC3)n2)s1 | 69.97 & -0.8215
Fc1ccc(F)c(CN2CCC(c3n[nH]c4ncccc34)CC2)c1.O=C(O)CC(O)(CC(=O)O)C(=O)O | 25.52
CN(C)c1cc(C(=O)N2CCN(c3cc(C#N)ccn3)CC2)ccn1 | -1.85
COc1cccc(CNc2cccnc2-n2cccn2)c1OC | 17.31 & 16.59
CC(=O)NCCNC(=O)c1cnc2c(c1)nc(-c1ccccc1Cl)n2C | 0.05814 & 6.415
CC(C)c1cc(C(=O)N2CCN(Cc3ccco3)CC2)n[nH]1 | 14.24 & -62.52
CC(C)(C)NC(=O)NC(=O)CNC(C)(C)c1ccc2c(c1)OCCO2 | 18.74
CCc1nc(CN(C)C2CCN(CC(=O)N3CCOCC3)C2)no1 (stereo not shown) | -27.48
CN(C)c1ccc(-c2noc([C@@H]3CCCN3)n2)cn1 | -28.65 & -4.226
Cc1cc(CN(C)C2CCN(c3cccc(-c4cscn4)c3)CC2)on1 | 53.3
COCCC1(CO)CCCN(C(=O)CCC(F)(F)F)C1 (stereo not shown) | -34.47 & 8.608
CCN1CCC(CNCc2c[nH]nc2C(C)(C)C)C1.Cl (stereo not shown) | 76.39
CCOc1cc(C(=O)N2CCCC2)cc2occc12 | -1.141
CCN(Cc1noc(CC(C)C)n1)Cc1ccccc1Cl | 45.52
Cc1cccc(CC(=O)Nc2cccnc2N2CCC(CO)CC2)c1 | -10.33 & -0.3987
COc1c(F)cc(CN2CCC3(CC2)C(C(=O)O)CC(=O)N3C)cc1Cl (stereo not shown) | -0.1314 & 3.006
COc1ccc(CN2CCOC[C@H](OCCC(C)C)C2)cc1 | 15.73 & 57.31
NCC1CCCN(c2nc(-c3ccccc3)nc3c2CCNCC3)C1 (stereo not shown) | 56.71
Cn1ccc(-c2cc(C(=O)N3CCC(O)CC3)c3ccccn23)n1 | 90.84
Cc1nc(C2CCCN2Cc2ccn(C)c(=O)c2)no1 (stereo not shown) | -15.32
Cc1nc(CN2C(=O)CCC23CCN(Cc2ccccn2)CC3)cs1.O=C(O)C(F)(F)F.O=C(O)C(F)(F)F | 53.58
c1cc(N2CCCCC2)ccc1-c1noc(CN2CCOCC2)n1 | 26.41
CNC(=O)CCS(=O)(=O)Cc1nnnn1-c1ccccc1 | 13 & 1.25
O=c1[nH]nc(CNCc2ccc(OC34CCCN(CC3)C4)cc2)[nH]1 (stereo not shown) | 4.117
COc1ccc(C(C)Nc2ncnc3c2NC(=O)CN3)cc1 (stereo not shown) | -10.12
CCCOc1ccc2c(c1)OCC(C(=O)NC(C)Cn1cccn1)=C2 (stereo not shown) | 24.35
O=C(CCc1ccccn1)N1CCCC1 | -6.918
COc1ccc(C)cc1CN1CCn2cccc2C1C (stereo not shown) | 51.79
FC1(F)CCN(Cc2cccnc2)CC12CCN(c1ccccn1)C2.O=C(O)C(F)(F)F.O=C(O)C(F)(F)F.O=C(O)C(F)(F)F (stereo not shown) | 45.81
CCOc1ccc(CN2CCN(C(=O)c3cc(C4CC4)[nH]n3)CC2)cc1 | -4.047 & 0.594
CCOCC1CN(Cc2ccsc2)Cc2cnn(C)c21 (stereo not shown) | -18.96
Cc1cnc(N2C(=O)CSC2c2ccccc2)s1 (stereo not shown) | 8.805 & 26.29
Cc1ccccc1N1CCN(c2ccncn2)C(C)C1 (stereo not shown) | 31.64 & 22.57
CC(=O)NCC(=O)N1CCc2nc(-c3ccccc3)nc(C)c2CC1 | 5.165 & 52.34
COc1cccc(OCCNS(=O)(=O)Cc2ccccc2)c1 | 8.286
CN(Cc1ccsc1)C(=O)c1ccc(S(=O)(=O)NC(C)(C)C)cc1 | 1.429
NC(=O)NC1CCN(Cc2ccc(Br)c(F)c2)CC1 | -2.555 & -1.2
COCc1noc(Cn2ccc3ncccc3c2=O)n1 | 9.858
COCCN1CCN(CCS(=O)(=O)c2cccc(OC)c2)CC1 | 23.23
O=C(NCC(CO)Cc1ccc(Cl)cc1)c1ccncc1Cl (stereo not shown) | 72.88 & 5.181
[H][C@]12CO[C@H](CNS(C)(=O)=O)[C@@]1([H])CCN(C(=O)c1cnoc1C)C2 | -16.99 & -4.298
CCCn1nnc(NCc2ccccc2OCc2ccc(Cl)cc2)n1 | 51.82
O=C(NCc1c(F)cccc1F)C1CN(C(=O)c2cnccn2)C1 | 2.403 & -10.93
O=C1Nc2ccccc2CN(CC2CC2)C12CCNC2 (stereo not shown) | 46.51
COc1ccc(Cl)c(NCC(=O)NCC(=O)N2CCCC2)c1 | 27.63
O=C(c1cnc(Nc2ccccc2)nc1)N1CCS(=O)(=O)CC1 | 11.02
CN1CCCN(C(=O)c2cc3c(s2)CCN3C(=O)C2CC2)CC1 | 9.894
CCN(C)CC1CCN(c2ncc(Br)cn2)C1 (stereo not shown) | -7.373 & 2.071
Cc1nc(CN(C)C)cc(N2CCCC(COc3ccc(F)cc3)C2)n1 (stereo not shown) | 36.91
Cc1ccccc1N1CCN(C(=O)c2cnc(C3CC3)nc2)C(C)C1 (stereo not shown) | 48.48
CCCc1nnsc1C(=O)NCC1CCN(c2ncccn2)CC1 | 3.351
CN(C(=O)CN1CCCC1Cc1ccccc1)c1ccccc1 (stereo not shown) | 50.05 & 40.5
Cc1cc(=O)n(CC(=O)Nc2ccc(Cl)cc2)nc1C | 6.768
Cc1cc(C)cc(-n2ncc3c2CCCC3N)c1 (stereo not shown) | 38.65
CC1CCC(O)(CSc2nnnn2C)CC1 (stereo not shown) | 8.03
O=C(NCCN1CCCCC1)c1ccn(-c2ccccc2)n1 | -1.392
COC(=O)c1cccc(NCC(=O)NC(N)=O)c1 | -24.9
COc1ccccc1C(=O)Nc1cc(CC(C)C)nn1C | 24.36
O=C1N(Cc2ccc(F)c(F)c2)CCCC1(O)CNCC1CCCCC1 (stereo not shown) | 17.97
CN(C)C(=O)c1csc(-c2ccoc2)n1 | -0.8984

For reference, 8 entries once more:

For COc1ccc(Cl)c(NCC(=O)NCC(=O)N2CCCC2)c1 the result was 27.63%.
For CC(=O)NCCNC(=O)c1cnc2c(c1)nc(-c1ccccc1Cl)n2C the result was 0.05814% & 6.415%.
For CCOCC1CN(Cc2ccsc2)Cc2cnn(C)c21 (stereo not shown) the result was -18.96%.
For CN1CCCN(C(=O)c2cc3c(s2)CCN3C(=O)C2CC2)CC1 the result was 9.894%.
For CC(C)CCNc1nnc(C(C)C)s1 the result was 9.35%.
For Cc1nc(CN(C)C)cc(N2CCCC(COc3ccc(F)cc3)C2)n1 (stereo not shown) the result was 36.91%.
For Cc1cnc(N2C(=O)CSC2c2ccccc2)s1 (stereo not shown) the result was 8.805% & 26.29%.
For CN(C)c1cc(C(=O)N2CCN(c3cc(C#N)ccn3)CC2)ccn1 the result was -1.85%.